Compound potency records, mixed from different reports. Data source: NIAID ChemDB in PubChem.

Shared fields: whole-cell or culture tests; agent: HIV-1

An empty or dashed field is not shown. ECn is the concentration giving n% inhibition of infection, replication or growth. Conditions beyond the fields shown may differ between rows.

structure | strain | changes | cells | read by | endpoint | result
Cc1cn([C@@H]2C[C@H](O)[C@H](CO)O2)c(=O)[nH]c1=O | LAI | - | PBMC | RT activity | EC50 | >10 µM
NC(=O)c1[nH]c2ccc(Cl)cc2c1S(=O)(=O)c1ccccc1 | WILD TYPE | - | C8166 | MTT | EC50 | 0.003 µM
CCCCNc1nc(Cc2c(F)cccc2F)c(C)c(=O)[nH]1 | IIIB | - | MT-4 | cytopathic effect / MTT | EC50 | 0.01 µM
C=O.Cc1cn(C2CC(N(N)N)C(OP(N)(=O)OCC3OC(n4ccc(N)nc4=O)CS3)O2)c(=O)[nH]c1=O | - | - | - | - | EC50 | 0.011 µM
NC(=O)C[C@H](NNC(=O)CN1CCCC(NC(=O)CCCCCCCCCCCCCCC(=O)O)C1=O)C(=O)N[C@@H](Cc1ccccc1)C(=O)O | - | - | - | MTT | EC50 | >125 µg/mL
CC(C)CN(C[C@@H](O)[C@H](Cc1ccccc1)NC(=O)O[C@H]1CO[C@H]2OCC[C@H]21)S(=O)(=O)c1cccc(N)c1 | PI-resistant (PR L10I M46I A71V I84V) M1 | PR-L10I M46I A71V I84V | MT-4 | cytopathic effect / MTT | EC50 | 0.1514 µM
Cc1c(C(C)c2c(F)cccc2F)nc(NC2CCCCC2)[nH]c1=O | IIIB | - | MT-4 | cytopathic effect / MTT | EC50 | 0.026 µM
Nc1ccn([C@@H]2O[C@H](CO)C3OC32)c(=O)n1 | - | - | ATH8 | RT activity | EC50 | <5 µM
Nc1ccn([C@@H]2C[C@@H](O)[C@H](CO)O2)c(=O)n1 | LAI | - | PBMC | RT activity | EC50 | >200 µM
Nc1nc2c(ncn2[C@@H]2OC[C@H](/C=C/P(=O)(O)O)[C@H]2F)c(=O)[nH]1 | IIIB | - | MT-4 | MTT | EC50 | 66.8 µM
CCc1c(Sc2ccc3ccccc3c2NC(C)=O)n(COCc2ccccc2)c(=O)[nH]c1=O | IIIB | - | MT-4 | cytopathic effect / MTT | EC50 | 8.78 µM
CC(C)(C)NC(=O)[C@@H]1C[C@@H]2CCCC[C@@H]2CN1C[C@@H](O)[C@H](Cc1ccccc1)NC(=O)[C@H](CC(N)=O)NC(=O)c1ccc2ccccc2n1 | NL4-3 | PR-L10R M46I L63P V82T | MT-4 | p24 | EC50 | <0.025 µM
Cc1c(Cc2c(F)cccc2F)nc(NC2CCCCC2)[nH]c1=O | IIIB | - | MT-4 | cytopathic effect / MTT | EC50 | 0.03 µM
Nc1nc(Cl)nc2c1ncn2[C@@H]1C[C@@H](O)[C@H](CO)O1 | LAI | - | PBMC | RT activity | EC50 | >10 µM
CC(C)CN(C[C@@H](O)[C@H](Cc1ccccc1)NC(=O)[C@H](CC(N)=O)NC(=O)c1ccc2ccccc2n1)C(=O)NC(C)(C)C | NL4-3 | PR-M46I L63P V82T I84V | MT-4 | p24 | EC50 | <1.5 µM
[N-]=[N+]=N[C@@H]1C[C@@H](n2cc(F)c(N)nc2=O)O[C@H]1CO | LAI | - | PBMC | RT activity | EC50 | 0.05 µM
CC(C)Cc1c(Sc2cccc3ccccc23)n(COCc2ccccc2)c(=O)[nH]c1=O | IIIB | - | MT-4 | cytopathic effect / MTT | EC50 | 2.96 µM
O=C(O)CSc1ccc2c(c1)c(=O)c1ccccc1n2C1CC1 | IIIB | - | MT-4 | trypan blue | EC50 | <12.5 µg/mL
CCc1c(Sc2ccccc2)n(COCc2ccccc2)c(=O)[nH]c1=O | - | - | MT-4 | cytopathic effect | EC50 | 0.0049 µM
O=C(/C=C/c1ccc(O)c2c1[C@H](C(=O)O)[C@@H](c1ccc(O)c(O)c1)O2)O[C@H](Cc1ccc(O)c(O)c1)C(=O)O | - | - | H9 | - | EC50 | 2 µM
O=c1cc(Cc2c(F)cccc2F)nc(NC2CCCC2)[nH]1 | - | RT-Y181C | MT-4 | cytopathic effect / MTT | EC50 | 2.1 µM
CC(C)(C)NC(=O)[C@@H]1CN(C(C)(C)c2cccnc2)CCN1C[C@@H](O)C[C@@H](Cc1ccccc1)C(=O)N[C@H]1c2ccccc2C[C@H]1O | NL4-3 | - | MT-4 | - | EC50 | <0.05 µM
Nc1cc[n+](C2CCC(CO)O2)c(=O)[nH]1 | IIIB | - | MT-4 | MTT | EC50 | 0.54 µg/mL
O=C(O)C(=Cc1ccc(O)c(O)c1)C(=Cc1ccc(O)c(O)c1)C(=O)O | - | - | - | - | EC50 | 4.4 µM
O=C(O)CSc1ccc2[nH]c3ccccc3c(=O)c2c1 | LAV | - | PBMC | - | EC50 | >100 µM
CC(C)=CCN1Cc2cccc3[nH]c(=S)n(c23)C[C@@H]1C | RT-M184V | RT-E89G | PBMC | p24 | EC50 | 0.02 µM
Nc1nc2c(ncn2[C@@H]2OC[C@H](CCP(=O)(O)O)[C@H]2F)c(=O)[nH]1 | IIIB | - | MT-4 | MTT | EC50 | 47.1 µM
CC(C)c1c(Sc2cccc3ccccc23)n(COCC2CC2)c(=O)[nH]c1=O | IIIB | - | MT-4 | cytopathic effect / MTT | EC50 | 0.38 µM
CCc1c(Sc2cc(C)cc(C)c2)n(CCCCC(=O)NCCCCCCCCCCNC(=O)CCc2cn([C@H]3C[C@H](N=[N+]=[N-])[C@@H](CO)O3)c(=O)[nH]c2=O)c(=O)[nH]c1=O | IIIB | - | MT-4 | RT activity | EC50 | >10 µM
CC[C@H](C)[C@H](NNC(=O)C1COC2CC[C@H](NC(=O)CCCCCCCCCCCCCCCC(=O)O)C(=O)N21)C(=O)N[C@@H](Cc1ccccc1)C(N)=O | - | - | - | MTT | EC50 | >125 µg/mL
CCc1c(Sc2cccc3ccccc23)n(COC)c(=O)[nH]c1=O | IIIB | - | MT-4 | cytopathic effect / MTT | EC50 | 0.5 µM
CCCCCCCCCCCCCC(=O)OC[C@H](COP(=O)(O)OP(=O)(O)OC[C@@H]1CC[C@H](n2cc(C)c(=O)[nH]c2=O)O1)OC(=O)CCCCCCCCCCCCC | A012B Clinical isolate | - | HT4 + HT4-6C | plaque count | EC50 | 8 µM
CCCNc1nc(C(C)c2c(F)cccc2F)c(C)c(=O)[nH]1 | - | RT-Y181C | MT-4 | cytopathic effect / MTT | EC50 | 0.2 µM
COC(=O)[C@H](Cc1ccccc1)NP(=O)(O)OC[C@H]1C[C@@H](n2cnc3cnccc32)[C@H](O)[C@@H]1O | G910 AZT-resistant | - | PBL | p24 | EC50 | 10 µM
Nc1ncnc2c1ncn2[C@@H]1C[C@@H](F)[C@H](CO)O1 | LAI | - | PBMC | RT activity | EC50 | >100 µM
CC(c1cc(=O)[nH]c(NC2CCCCC2)n1)c1c(F)cccc1F | IIIB | - | MT-4 | cytopathic effect / MTT | EC50 | 0.022 µM
Nc1nc2cc3[nH]c4ccccc4c(=O)c3cc2[nH]1 | LAV | - | PBMC | - | EC50 | >100 µM
O=c1c(O)c(-c2ccc(O)c(O)c2)oc2cc(O)cc(O)c12 | - | - | PBMC | p24 | EC50 | <40 µM
Nc1ncnc2c1ncn2[C@@H]1OC[C@H](/C=C/P(=O)(O)O)[C@H]1F | IIIB | - | MT-4 | MTT | EC50 | 34.2 µM
Cc1c(Sc2ccccc2)n(COCCO)c(=O)[nH]c1=O | - | - | MT-4 | cytopathic effect | EC50 | 6.5 µM
CC(c1cc(=O)[nH]c(NC2CCCC2)n1)c1c(F)cccc1F | - | RT-Y181C | MT-4 | cytopathic effect / MTT | EC50 | 0.5 µM
Nc1nc(=O)n([C@@H]2CC[C@H](CO)O2)cc1Cl | LAI | - | PBMC | RT activity | EC50 | >100 µM
Cc1c(Sc2ccccc2)n(COCc2ccccc2)c(=O)[nH]c1=O | - | - | MT-4 | cytopathic effect | EC50 | 0.093 µM
CCc1c(Sc2cccc3ccccc23)n(COCc2ccccc2)c(=O)[nH]c1=O | IIIB | - | MT-4 | cytopathic effect / MTT | EC50 | 0.048 µM
C=CCSS/C=C/CS(=O)CC=C | - | - | CEM13 + CEM | - | EC50 | 5 µM
Cc1cc(/C=C/C#N)cc(C)c1Oc1nc(Nc2ccc(CN3CCN(S(N)(=O)=O)CC3)cc2)nc2ccsc12 | IIIB | - | MT-4 | MTT | EC50 | 0.007 µM
Nc1nccc2c1ncn2[C@@H]1O[C@H](CO)[C@@H](O)[C@H]1O | A012 PRE-AZT | - | PBL | p24 | EC50 | 0.144 µM
CCc1c(Sc2ccc3ccccc3c2[N+](=O)[O-])n(COCc2ccccc2)c(=O)[nH]c1=O | IIIB | - | MT-4 | cytopathic effect / MTT | EC50 | 0.065 µM
CC(C)(C)NC(=O)[C@@H]1CN(C(C)(C)c2cc3cnccc3o2)CCN1C[C@@H](O)C[C@@H](Cc1ccccc1)C(=O)N[C@H]1c2ccccc2OC[C@H]1O | NL4-3 | - | MT-4 | - | EC95 | 0.008 µM
Cc1cn([C@H]2C[C@H](N=[N+]=[N-])[C@@H](CO)O2)c(=O)[nH]c1=O | RT-M184V | RT-E89G | PBMC | p24 | EC50 | 0.001 µM
CC(C)Nc1nc(Cc2c(F)cccc2F)cc(=O)[nH]1 | IIIB | - | MT-4 | cytopathic effect / MTT | EC50 | 0.4 µM
O=C(/C=C/c1ccc(O)c(O)c1)O[C@@H]1CC(O)(C(=O)O)C[C@@H](OC(=O)/C=C/c2ccc(O)c(O)c2)C1O | - | - | MT-2 | - | EC50 | 1.9 µM
Nc1nc(=O)n([C@@H]2C[C@@H](O)[C@H](CO)O2)cc1F | LAI | - | PBMC | RT activity | EC50 | >100 µM

A second listing of 7 rows from above:

structure,strain,changes,cells,read by,endpoint,result
CC(C)=CCN1Cc2cccc3[nH]c(=S)n(c23)C[C@@H]1C,RT-M184V,RT-E89G,PBMC,p24,EC50,0.02 µM
[N-]=[N+]=N[C@@H]1C[C@@H](n2cc(F)c(N)nc2=O)O[C@H]1CO,LAI,-,PBMC,RT activity,EC50,0.05 µM
Nc1ncnc2c1ncn2[C@@H]1OC[C@H](/C=C/P(=O)(O)O)[C@H]1F,IIIB,-,MT-4,MTT,EC50,34.2 µM
Nc1nc2c(ncn2[C@@H]2OC[C@H](/C=C/P(=O)(O)O)[C@H]2F)c(=O)[nH]1,IIIB,-,MT-4,MTT,EC50,66.8 µM
CC(C)CN(C[C@@H](O)[C@H](Cc1ccccc1)NC(=O)[C@H](CC(N)=O)NC(=O)c1ccc2ccccc2n1)C(=O)NC(C)(C)C,NL4-3,PR-M46I L63P V82T I84V,MT-4,p24,EC50,<1.5 µM
Nc1ccn([C@@H]2C[C@@H](O)[C@H](CO)O2)c(=O)n1,LAI,-,PBMC,RT activity,EC50,>200 µM
O=C(/C=C/c1ccc(O)c(O)c1)O[C@@H]1CC(O)(C(=O)O)C[C@@H](OC(=O)/C=C/c2ccc(O)c(O)c2)C1O,-,-,MT-2,-,EC50,1.9 µM